{"source": "patent US20100284967A1", "about": "(US Dept. of Health and Human Services, published 2010)", "binders": {"B1": {"name": "His6-tagged recombinant gpD protein (bacteriophage lambda major coat protein gpD, expressed in E. coli) (other)", "chain": "MTSKETFTHYQPQGNSDPAHTATAPGGLSAKAPAMTPLMLDTSSRKLVAWDGTTDGAAVGILAVAADQTSTTLTFYKSGTFRYEDVLWPEAASDETKKRTAFAGTAISIV"}}, "target": "T1, gpD-deficient lambda phage capsids (λ D1180, genome about 80% of wild-type size) (bacteriophage lambda, UniProt P03713 1-341)", "T1 sequence": "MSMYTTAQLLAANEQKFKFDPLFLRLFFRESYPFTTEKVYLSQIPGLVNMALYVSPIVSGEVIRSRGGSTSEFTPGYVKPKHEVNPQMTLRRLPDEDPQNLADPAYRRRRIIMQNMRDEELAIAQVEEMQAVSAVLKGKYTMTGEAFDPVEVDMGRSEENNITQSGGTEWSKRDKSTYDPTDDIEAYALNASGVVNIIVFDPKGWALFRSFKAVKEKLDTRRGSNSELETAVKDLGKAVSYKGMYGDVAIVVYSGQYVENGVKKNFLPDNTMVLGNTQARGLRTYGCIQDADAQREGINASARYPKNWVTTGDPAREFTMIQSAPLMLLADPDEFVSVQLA", "assay": "cell-based or functional assay"}
{"binder": "B1", "values": [{"measurement": "EDTA resistance of phage titer (plaque assay on LE392 E. coli)", "result": "≥ 5 fold molar excess of exogenous gpD over predicted gpD binding sites"}]}
